Measured values as given in PMC8122397, “Synthesis of New Triazolopyrazine Antimalarial Compounds” (Molecules, 2021).

Key:
[1] = system: Plasmodium falciparum 3D7 (chloroquine-sensitive strain); assay: In vitro anti-plasmodial image-based asexual assay, 3D7 strain; type: cell-based; conditions: SI = HEK293 IC50/parasite IC50
Protocol: (§1) The semisynthesized/functionalized triazolopyrazine compounds and the scaffold triazolopyrazine precursors, compounds 1–18, were tested for their antimalarial activity against the 3D7 (chloroquine-sensitive strain) and Dd2 (chloroquine, pyrimethamine, and mefloquine resistant strain) P. falciparum. Where an accurate IC50 value could not be determined due to 100% growth inhibition and a plateau not being reached, but where ≥90% growth inhibition was attained at the top screening concentration, an estimated IC50 value was calculated.
(§2) Plsamodium falciparum 3D7 and Dd2 parasites were cultured in RPMI1640 (Life Technologies, Camarillo, CA, USA) supplemented with 2.5 mg/mL Albumax II, 5% AB human serum, 25 mM HEPES, and 0.37mM hypoxanthine. Ring stage parasites were treated with compounds following two rounds of sorbitol synchronization, as previously described. Artesunate and pyrimethamine were incorporated as controls. Following incubation of assay plates for 72 h at 37 °C, and 5% CO2 and 5% O2, parasites were stained with 2-(4-amidinophenyl)-1H-indole-6-carboxamidine (DAPI) and imaged using an Opera QEHS confocal imaging system (PerkinElmer, Waltham, MA, USA). Images were analyzed, as previously described, using Acapella spot detection software (PerkinElmer, Waltham, MA, USA).
(§3) Normalizing of raw data used the in-plate positive (5 μM puromycin 100% inhibition) and negative (0.4% DMSO–no inhibition) controls to obtain percent inhibition and then used to calculate IC50 values through a 4 parameter logistic curve fitting in GraphPad Prism v.6.

[2] = system: Plasmodium falciparum Dd2 (chloroquine, pyrimethamine, and mefloquine drug-resistant strain); assay: In vitro anti-plasmodial image-based asexual assay, Dd2 strain; type: cell-based; conditions: SI = HEK293 IC50/parasite IC50
Protocol: as §1, §2, §3

Row | Structure (SMILES) | SI for 3D7 [1] | SI for Dd2 [2]
1 | Cc1ncc(Cl)n2c(-c3ccc(OC(F)F)cc3)nnc12 [Compound 11, 5-Chloro-3-[(4-difluoromethoxy)phenyl]-8-methyl-[1,2,4]triazolo[4,3-α]pyrazine] | >6 | >2
2 | FC(F)(F)c1ncc(Cl)n2c(-c3ccc(Cl)cc3)nnc12 [Compound 14, 5-Chloro-3-(4-chlorophenyl)-8-(trifluoromethyl)-[1,2,4]triazolo[4,3-α]pyrazine] | >16 | >12
3 | FC(F)Oc1ccc(-c2nnc3cncc(OCCc4ccccc4)n23)cc1 [Compound 2, 3-[4-(Difluoromethoxy)phenyl]-5-(2-phenylethoxy)-[1,2,4]triazolo[4,3-α]pyrazine] | >258 | >148
4 | FC(F)Oc1ccc(-c2nnc3cncc(OCC(F)(F)F)n23)cc1 [Compound 3, 3-[(4-Difluoromethoxy)phenyl]-5-(2,2,2,-trifluroethoxy)-[1,2,4]triazolo[4,3-α]pyrazine] | >4 | >3
5 | COc1ccc(C[C@H](N)C(=O)N[C@H]2[C@@H](O)[C@H](n3cnc4c(N(C)C)ncnc43)O[C@@H]2CO)cc1 [Puromycin, reference compound] | 12 | 11
6 | Clc1ccc(-c2nnc3cncc(Cl)n23)cc1 [Compound 7] | >6 | >5
7 | Cc1ncc(Cl)n2c(-c3ccc(Cl)cc3)nnc12 [Compound 8, 5-Chloro-3-(4-chlorophenyl)-8-methyl-[1,2,4]triazolo[4,3-α]pyrazine] | >4 | >2
8 | CC(F)(F)c1ncc(Cl)n2c(-c3ccc(Cl)cc3)nnc12 [Compound 15, 5-Chloro-3-(4-chlorophenyl)-8-(1,1-difluoroethyl)-[1,2,4]triazolo[4,3-a]pyrazine] | >46 | >31
9 | Cc1ncc(OCC(F)(F)F)n2c(-c3ccc(OC(F)F)cc3)nnc12 [Compound 12, 3-[4-(Difluoromethoxy)phenyl]-8-methyl-5-(2,2,2-trifluoroethoxy)-[1,2,4]triazolo[4,3-a]pyrazine] | >2 | –
10 | CCc1nc(N)nc(N)c1-c1ccc(Cl)cc1 [Pyrimethamine, reference compound] | >331 | –
11 | Cc1ncc(Cl)n2c(-c3ccc(C#N)cc3)nnc12 [Compound 10, 4-(5-Chloro-8-methyl-1,2,4-triazolo[4,3-α]pyrazin-3-yl)benzonitrile] | >2 | >2
12 | N#Cc1ccc(-c2nnc3cncc(Cl)n23)cc1 [Compound 9] | >4 | >3
13 | CC(F)(F)c1nccn2c(-c3ccc(Cl)cc3)nnc12 [Compound 16, 3-(4-Chlorophenyl)-8-(1,1-difluoroethyl)-[1,2,4]triazolo[4,3-a]pyrazine] | >12 | >3
14 | C[C@H]1[C@H](OC(=O)CCC(=O)O)O[C@@H]2O[C@@]3(C)CC[C@H]4[C@H](C)CC[C@@H]1[C@@]24OO3 [Artesunate, reference compound] | >2874 | >5000
15 | FC(F)Oc1ccc(-c2nnc3cncc(Cl)n23)cc1 [Compound 1] | >4 | >3
16 | Cc1ncc(OCCc2ccccc2)n2c(-c3ccc(OC(F)F)cc3)nnc12 [Compound 13, 3-[4-(Difluoromethoxy)phenyl]-8-methyl-5-(2-phenylethoxy)-[1,2,4]triazolo[4,3-a]pyrazine] | >7 | >9
17 | FC1(F)CCC(c2ncc(Cl)n3c(-c4ccc(Cl)cc4)nnc23)CC1 [Compound 17, 5-Chloro-3-(4-chlorophenyl)-8-(4,4-difluorocyclohexyl)-[1,2,4]triazolo[4,3-a]pyrazine] | >3 | –
